In test [1] the target is T1, HSV1 gE/gI complex on glioma cells expressing both Us7 and Us8 (glioma Us7+Us8) (herpes simplex virus 1 (F strain)).
T1 construct: whole, on cells; Genes were expressed upstream of T2A-GFP
Kind of test: flow cytometry, biotinylated CD16a + APC-streptavidin on transfected glioma cells, without IgG.

For test [2], the target named is T2, CMV gp68 on transfected glioma cells (CMV, UniProt P16739 24-345).
T2 construct: whole, on cells; also called 68 kDa-glycoprotein
T2 sequence: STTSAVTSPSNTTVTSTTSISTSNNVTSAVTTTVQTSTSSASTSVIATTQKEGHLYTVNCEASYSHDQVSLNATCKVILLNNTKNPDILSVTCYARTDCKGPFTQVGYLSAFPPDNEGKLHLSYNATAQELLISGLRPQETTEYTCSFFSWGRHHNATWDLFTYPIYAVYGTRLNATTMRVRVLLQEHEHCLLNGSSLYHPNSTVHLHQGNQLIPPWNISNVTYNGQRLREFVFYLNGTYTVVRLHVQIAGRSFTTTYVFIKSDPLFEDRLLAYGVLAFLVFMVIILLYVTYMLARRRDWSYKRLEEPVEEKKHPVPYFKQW
As to the kind of experiment: flow cytometry, fluorescently labeled CD16a alone on transfected glioma cells.

B1: biotinylated CD16a (extracellular domain of human FcγRIIIA/CD16a) (receptor)
chain: not shown
notes: Detected with APC-streptavidin; also called fluorescently labeled CD16a
B1: the binding result in test [1] and in test [2] was “no binding” in each case.

(Values after patent publication US20200040064A1 (OHIO STATE INNOVATION FOUNDATION, published 2020).)
